Pooled drug test results. Numbers come from NIAID ChemDB, via PubChem.

All rows: tests in culture; agent: Mycobacterium smegmatis

Conditions beyond the fields shown may differ between rows. a–b is a range or a potency band. An empty or dashed field is not shown. ECn: concentration that inhibits the pathogen or its effect by n%. A number after MIC or MFC names an inhibition level or a share of isolates.

C[C@H]1COc2c(N3CCSCC3)c(F)cc3c(=O)c(C(=O)O)cn1c23 ; method: agar ; endpoint: MIC99 ; result: 4.28 µM
O=C(Nc1ccc(S(=O)(=O)Nc2nccs2)cc1)c1cccc(N2C(=O)c3ccccc3C2=O)c1 ; method: turbidity ; endpoint: MIC80 ; result: 80 µM
C[C@H]1O[C@H](O[C@H]2CC[C@H](n3ccc(NC(=O)c4ccc(N5CN[C@@](C)(CO)C5=O)cc4)nc3=O)O[C@@H]2C)[C@H](O)[C@@H](O)[C@@H]1N(C)C ; method: broth dilution / agar diffusion ; endpoint: MIC ; result: 32 µg/mL
Cn1c(=O)sn(-c2cccc3ccccc23)c1=O ; method: broth dilution ; strain: mc2155 ; endpoint: MIC ; result: 25 µg/mL
Cc1ccc(-c2cc(C(=O)Nc3ccc(S(=O)(=O)Nc4onc(C)c4C)cc3)c3ccccc3n2)cc1 ; method: turbidity ; endpoint: MIC80 ; result: >100 µM
CC[C@H](C)[C@@H](NC(=O)[C@@H](CCC(=O)O)NC(=O)[C@H](Cc1cnc[nH]1)NC(=O)[C@H](CC(C)C)NC(=O)[C@H](N)Cc1ccccc1)C(=O)N[C@H]1CCCCNC1=O ; endpoint: MIC ; result: 0.78 µg/mL
O=C(O)c1c2n(c3cc(F)c(N4CCC(n5c(=O)[nH]c6ccc(Cl)cc65)CC4)cc3c1=O)CS2 ; method: agar ; strain: ATCC 14468 ; endpoint: MIC ; result: 49.91 µM
O=C(NCCc1ccc(Cl)cc1)C1(c2cccs2)CCOCC1 ; method: turbidity ; endpoint: EC50 ; result: 20 µM
Cn1c(=O)sn(-c2ccccc2)c1=O ; method: broth dilution ; strain: mc2155 ; endpoint: MIC ; result: 25 µg/mL
NNC(=O)c1ccncc1 ; strain: MC^2 832 ; endpoint: MIC ; result: 60 µg/mL
CC1(C)CC[C@]2(C(=O)O)CC[C@]3(C)C(CC[C@@H]4[C@@]5(C)C[C@H](O)CC(C)(C)[C@@H]5CC[C@]43C)[C@@H]2C1 ; method: resazurin ; endpoint: MIC ; result: 100 µg/mL
CNCCC[C@@H](CN[C@H](CN)Cc1cccc2ccccc12)NCCc1cccc2ccccc12 ; method: absorbance ; strain: mc2155 ; endpoint: MIC ; result: 6.25 µM
O=C(Nc1ccc(S(=O)(=O)Nc2nccs2)cc1)c1cc(-c2ccccc2Cl)nc2ccccc12 ; method: turbidity ; endpoint: MIC80 ; result: 20–40 µM
CCCC[C@@H](CN[C@H](CN)CCCCNC)NCc1cccc2ccccc12 ; method: absorbance ; strain: mc2155 ; endpoint: MIC ; result: 12.5 µM
COc1cc2c(cc1OC)CN(c1c(F)cc3c(=O)c(C(=O)O)cn4c3c1OCC4C)CC2 ; method: agar ; endpoint: MIC99 ; result: 13.75 µM
O=C(Nc1cccc(S(=O)(=O)NC2=NCCCC2)c1)c1cc(-c2ccco2)nc2ccccc12 ; method: turbidity ; endpoint: MIC80 ; result: >100 µM
C[C@H]1COc2c(N3CCN(C)C(c4ccccc4)C3)c(F)cc3c(=O)c(C(=O)O)cn1c23 ; method: agar ; endpoint: MIC99 ; result: 114 µM
Cc1c(OCC(F)(F)F)ccnc1CSc1nc2ccccc2[nH]1 ; method: resazurin ; strain: mc2155 ; endpoint: MIC90 ; result: >100 µM
CN[C@H](CC(C)C)C(=O)N[C@H]1C(=O)N[C@@H](CC(N)=O)C(=O)N[C@H]2C(=O)N[C@H]3C(=O)N[C@H](C(=O)N[C@H](C(=O)O)c4cc(O)cc(O)c4-c4cc3ccc4O)[C@H](O)c3ccc(c(Cl)c3)Oc3cc2cc(c3O[C@@H]2O[C@H](CO)[C@@H](O)[C@H](O)[C@H]2O[C@H]2C[C@](C)(N)[C@H](O)[C@H](C)O2)Oc2ccc(cc2Cl)[C@H]1O ; strain: 2 strains ; endpoint: Median MIC ; result: 8 µg/mL
COc1ccc(/C=C/C2=NN(C(=N)N)C(c3ccc(OC)cc3)C2)cc1 ; method: resazurin ; endpoint: MIC ; result: 1.78 µM
CC1COc2c(N3CCN(C(c4ccccc4)c4ccc(Cl)cc4)CC3)c(F)c([N+](=O)[O-])c3c(=O)c(C(=O)O)cn1c23 ; method: agar ; endpoint: MIC99 ; result: 0.66 µM
O=C(O)c1c2n(c3cc([N+](=O)[O-])c(N4CCN(C(=O)C5COc6ccccc6O5)CC4)cc3c1=O)CS2 ; method: agar ; strain: ATCC 14468 ; endpoint: MIC ; result: 47.66 µM
C[C@H]1COc2c(N3CCC4(CC3)OCCO4)c(F)c(N)c3c(=O)c(C(=O)O)cn1c23 ; method: agar ; endpoint: MIC99 ; result: 11.16 µM
Cc1ccc(-n2sc(=O)n(Cc3ccc(F)cc3)c2=O)cc1 ; method: broth dilution ; strain: mc2155 ; endpoint: MIC ; result: 25 µg/mL
COc1ccc2[nH]c(=O)c(-c3ccccc3)c(O)c2c1 ; method: luminescence ; strain: MC2 155 lux ; endpoint: MIC ; result: 23.2 µM
COc1cc2c(cc1OC)CN(c1cc3c(=O)c(C(=O)O)c4n(c3cc1[N+](=O)[O-])CS4)CC2 ; method: agar ; strain: ATCC 14468 ; endpoint: MIC ; result: 106.5 µM
CCCCNC(=O)c1cc([N+](=O)[O-])cc([N+](=O)[O-])c1 ; method: visual reading ; strain: mc2155 ; endpoint: MIC ; result: 4 µg/mL
CC(C)(C)OC(=O)NC1C2CN(c3cc4c(=O)c(C(=O)O)c5n(c4cc3F)CS5)CC21 ; method: agar ; strain: ATCC 14468 ; endpoint: MIC ; result: 55.87 µM
C[C@H]1COc2c(N3CCC(O)(c4ccc(Cl)cc4)CC3)c(F)c([N+](=O)[O-])c3c(=O)c(C(=O)O)cn1c23 ; method: agar ; endpoint: MIC99 ; result: 6.04 µM
O=C(O)c1c2n(c3cc(F)c(N4CCC(N5CCCCC5)CC4)cc3c1=O)CS2 ; method: agar ; strain: ATCC 14468 ; endpoint: MIC ; result: 120 µM
O=C(Nc1cccc(S(=O)(=O)NC2=NCCC2)c1)c1cc(-c2ccco2)nc2ccccc12 ; method: turbidity ; endpoint: MIC80 ; result: >100 µM
COc1cc(/C=C/C2=NN(C(=N)N)C(c3cc(OC)c(OC)c(OC)c3)C2)cc(OC)c1OC ; method: resazurin ; endpoint: MIC ; result: 21.2 µM
COc1ccc(NC(=O)c2cc(-c3ccco3)nc3ccccc23)cc1S(=O)(=O)N1CCOCC1 ; method: turbidity ; endpoint: MIC80 ; result: >100 µM
Cc1noc(C)c1-n1sc(=O)n(CC2CC2)c1=O ; method: broth dilution ; strain: mc2155 ; endpoint: MIC ; result: 50 µg/mL

For reference, 2 entries again:

structure	method	strain	endpoint	result
Cn1c(=O)sn(-c2cccc3ccccc23)c1=O	broth dilution	mc2155	MIC	25 µg/mL
COc1ccc(/C=C/C2=NN(C(=N)N)C(c3ccc(OC)cc3)C2)cc1	resazurin	-	MIC	1.78 µM